Measurements published in article PMC11196219.

Chains of the proteins cited; added tags and fusions are not shown. Residues count along the entry.
UniProt P0C6X9, 3334-3635 limits assumed: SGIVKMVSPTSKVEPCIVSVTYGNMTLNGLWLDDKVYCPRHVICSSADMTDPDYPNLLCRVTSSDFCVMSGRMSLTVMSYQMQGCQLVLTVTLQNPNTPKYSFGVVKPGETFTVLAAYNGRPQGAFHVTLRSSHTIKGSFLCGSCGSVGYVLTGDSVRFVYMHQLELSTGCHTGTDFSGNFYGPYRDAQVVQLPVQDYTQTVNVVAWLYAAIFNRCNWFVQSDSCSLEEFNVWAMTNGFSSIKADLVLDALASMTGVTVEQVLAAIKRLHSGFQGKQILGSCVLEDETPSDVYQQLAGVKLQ
UniProt P0C6X5, 2940-3242 limits assumed: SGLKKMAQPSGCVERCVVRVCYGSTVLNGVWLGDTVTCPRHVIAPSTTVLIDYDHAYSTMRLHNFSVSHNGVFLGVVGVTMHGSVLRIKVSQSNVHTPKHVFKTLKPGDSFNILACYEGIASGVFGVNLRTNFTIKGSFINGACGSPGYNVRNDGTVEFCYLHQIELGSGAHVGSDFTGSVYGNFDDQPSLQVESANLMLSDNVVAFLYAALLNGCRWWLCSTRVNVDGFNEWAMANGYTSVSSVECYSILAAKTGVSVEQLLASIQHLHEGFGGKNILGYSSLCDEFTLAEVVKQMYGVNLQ

How the values were obtained:
Test in all cases: Mpro-On assay
poliovirus protease = poliovirus protease (Poliovirus type 1, UniProt P03300); settings: polio protease
MHV-Mpro = MHV-Mpro (Murine coronavirus, UniProt P0C6X9)
NL63-Mpro = NL63-Mpro (Human coronavirus NL63, UniProt P0C6X5)
HKU9-Mpro = HKU9-Mpro (Bat coronavirus HKU9, UniProt P0C6W5)

| Structure (SMILES) | inhibitor potency (dsRed signal), in words (poliovirus protease) | inhibitor potency (dsRed signal), in words (MHV-Mpro) | inhibitor potency (dsRed signal), in words (NL63-Mpro) | inhibitor potency (dsRed signal), in words (HKU9-Mpro) |
| --- | --- | --- | --- | --- |
| CC(C)(C)[C@H](NC(=O)C(F)(F)F)C(=O)N1C[C@H]2[C@@H]([C@H]1C(=O)N[C@H](C#N)C[C@@H]1CCNC1=O)C2(C)C | no effect | no effect | mild effect | moderate effect |
| Cn1cnc(Cn2c(=O)[nH]/c(=N\c3cc4cn(C)nc4cc3Cl)n(Cc3cc(F)c(F)cc3F)c2=O)n1 | not effective | not effective | not effective | less effective |
